Compound potency records, mixed from different reports. Data source: NIAID ChemDB in PubChem.

All rows: growth or infection tests; organism: HIV-1; cell line: U-937; measure: EC50

An empty or dashed field is not shown. Rows are shuffled and stem from different studies. ECn: concentration that inhibits the pathogen or its effect by n%.

| structure | strain | method | conditions | value |
|---|---|---|---|---|
| Nc1ncnc2c1ncn2[C@H]1CC[C@@H](CO)O1 | LAV-1 | virus yield |  | <1 µM |
| NOCc1c(F)cccc1Cl | IIIB | p24 |  | 1.9 µg/mL |
| Cc1ccnc2c1NC(=O)c1cccnc1N2C1CC1 | IIIB | cytopathic effect / XTT |  | 0.3 µM |
| Nc1ccn([C@@H]2CC[C@H](CO)O2)c(=O)n1 | IIIB |  |  | 0.1 µM |
| OC[C@H]1NC[C@H](O)[C@@H](O)[C@@H]1O | CLB 32 | syncytia |  | <1000 µM |
| Cc1ccnc2c1NC(=O)c1cccnc1N2C1CC1 | IIIB | cytopathic effect / XTT |  | 0.3 µM |
| Cc1cn([C@H]2C[C@H](N=[N+]=[N-])[C@@H](CO)O2)c(=O)[nH]c1=O | IIIB | cytopathic effect / XTT |  | 0.003 µM |
| CC[C@@H](O)[C@]1(C)C[C@H](C)[C@@](O)([C@H]2C[C@H](C)[C@H]([C@]3(C)CC[C@H]([C@@H]4CC[C@@]5(O[C@H]([C@@H](C)[C@@H](OC)[C@H](C)C(=O)O)[C@H](C)[C@@H](OC)[C@H]5C)O4)O3)O2)O1 | IIIB | RT activity |  | 0.1 µg/mL |
| O=S1(c2ccccc2)=NC(=S)Nc2ccccc21 | IIIB | cytopathic effect / XTT |  | 5.04 µM |
| Cc1cn([C@H]2C[C@H](N=[N+]=[N-])[C@@H](CO)O2)c(=O)[nH]c1=O | BRU | p24 |  | 0.2 µM |
| N[C@@H](CCC(=O)N[C@@H](CS)C(=O)NCC(=O)O)C(=O)O | IIIB | p24 |  | >3000 µM |
| O=C(O)c1cc(O)cc(O)c1N=Nc1ccc(/C=C/c2ccc(N=Nc3c(O)cc(O)cc3C(=O)O)cc2S(=O)(=O)O)c(S(=O)(=O)O)c1 | IIIB | RT activity |  | 5.8 µg/mL |
| COc1ccc(CN[C@@H](C(=O)N[C@H]2c3ccccc3C[C@H]2O)[C@H](O)[C@H](Cc2ccccc2)NC(=O)[C@@H](NC(=O)OCc2ccccc2)C(C)(C)C)cc1 | IIIB | p24 |  | 0.079 µM |
| Nc1ccn([C@@H]2CO[C@H](CO)S2)c(=O)n1 | IIIB | p24 |  | 0.3 µM |
| CC[C@@]1(O)C(=O)OCc2c1cc1n(c2=O)Cc2cc3c([N+](=O)[O-])cccc3nc2-1 | IIIB | p24 / ELISA |  | 0.02 µM |
| CC[C@]1(c2ccccc2)Oc2cccnc2-n2cccc2C1=O |  | p24 |  | 0.41 µM |
| Cc1occc1C(=S)Nc1ccc(Cl)c(/C=N/OC(C)(C)C)c1 | IIIB | cytopathic effect / XTT |  | 0.03 µM |
| COC1CCC(OC2CC(C3OC(O)(CO)C(C)CC3C)OC2C2(C)CCC(C3(C)CCC4(CC(O)C(C)C(C(C)C5OC(O)(CC(=O)O)C(C)C(OC6CCC(OC)C(C)O6)C5OC)O4)O3)O2)OC1C | IIIB | RT activity |  | 3.7 µg/mL |
| Nc1nc(=O)n([C@@H]2CO[C@H](CO)S2)cc1F | IIIB | p24 |  | 0.6 µM |
| Cc1ccnc2c1NC(=O)c1cccnc1N2C1CC1 | IIIB | RT activity |  | 0.3 µM |
| O=S1(c2ccccc2)=NC(=S)Nc2ccccc21 | RF | RT activity |  | 5.04 µM |
| C/C=C/CSc1cc(NC(=S)c2ccsc2C)ccc1Cl | IIIB | cytopathic effect / XTT |  | 0.006 µM |
| CC(=O)[C@H]1CC[C@H]2[C@@H]3CCC4=CC(=O)CC[C@]4(C)[C@H]3CC[C@]12C | LTR-CAT | p24 |  | >0.1 µM |
| CCCc1cc(=O)oc2c3c(c4c(c12)OC(C)(C)C=C4)O[C@H](C)[C@@H](C)[C@@H]3O | IIIB | cytopathic effect / XTT |  | 0.2 µM |
| CC[C@@]1([C@@H]2O[C@@H]([C@H]3O[C@@](O)(CO)[C@H](C)C[C@@H]3C)C[C@@H]2C)CC[C@H]([C@]2(C)CC[C@]3(C[C@H](O)[C@@H](C)[C@@H]([C@@H](C)[C@@H](OC)[C@H](C)C(=O)O)O3)O2)O1 | IIIB | RT activity |  | 0.5 µg/mL |
| Cc1cn([C@H]2C[C@H](N=[N+]=[N-])[C@@H](CO)O2)c(=O)[nH]c1=O | IIIB | cytopathic effect / XTT |  | 0.078 µg/mL |
| COC1CCC(OC2CC(C)(C3CCC(C4OC(C)(O)C(C)CC4C)O3)OC2C2(C)CC(C)C3(OC(CC4OC(O)(C(C)C(=O)O)C(C)C(OC)C4OC)CC(OC)C3C)O2)OC1C | IIIB | RT activity |  | 1.35 µg/mL |
| O=c1[nH]cnc2c1ncn2[C@H]1CC[C@@H](CO)O1 | U455 | p24 |  | 4.5 µM |
| Cc1cc(=O)c2ccc(N=C=S)cc2o1 | NL4-3 | p24 / ELISA |  | 0.17 µM |
| Cc1cn([C@H]2C[C@H](N=[N+]=[N-])[C@@H](CO)O2)c(=O)[nH]c1=O | LAV | p24 / ELISA |  | 0.03 µg/mL |
| CC(=O)c1ccc(C)cc1NC(C(N)=O)c1c(Cl)cccc1Cl | IIIB | cytopathic effect / MTT |  | 0.026 µM |
| CO[P@](=O)(c1cc(C)cc(/C=C/C#N)c1)c1c(C(N)=O)[nH]c2ccc(Cl)c(F)c12 | IIIB |  |  | 0.0005 µM |
| O=[N+]([O-])c1ccccc1S(=O)(=O)c1ccccc1 | IIIB | cytopathic effect / XTT |  | 7.98 µM |
| Fc1cccc(F)c1C1SCc2nc3ccccc3n21 | RF | RT activity |  | 0.52 µM |
| CC(C)CCC[C@@H](C)[C@H]1CC[C@H]2[C@@H]3CC[C@H]4C[C@@H](CCC=C(c5cc(Cl)c(O)c(C(=O)O)c5)c5cc(Cl)c(O)c(C(=O)O)c5)CC[C@]4(C)[C@H]3CC[C@]12C | RF | p24 / RT activity |  | 7.4 µM |
| CNc1ccc(Cl)cc1S(=O)(=O)c1ccccc1[N+](=O)[O-] | IIIB | XTT |  | 0.2 µM |
| Cc1cn([C@H]2C[C@H](N=[N+]=[N-])[C@@H](CO)O2)c(=O)[nH]c1=O | IIIB | p24 / ELISA |  | 0.0037 µg/mL |
| Cc1cn([C@H]2C[C@H](N=[N+]=[N-])[C@@H](CO)O2)c(=O)[nH]c1=O | LAV-Bru | RT activity | 11 d | >25 µM |
| CC(=O)O[C@@H]1[C@H](OC(=O)CC(C)C)c2c(ccc3ccc(=O)oc23)OC1(C)C | IIIB | p24 |  | 1.5 µM |
| COc1ccc(CN[C@@H](C(=O)N[C@H](C(=O)NCc2nc3ccccc3[nH]2)C(C)C)[C@H](O)[C@H](Cc2ccccc2)NC(=O)[C@@H](NC(=O)OCc2ccccc2)C(C)(C)C)cc1 | IIIB | MTT / p24 |  | 0.0107 µM |
| CCCN(C)C(=O)Oc1nsnc1-c1c(Cl)cccc1Cl | IIIB | p24 |  | 0.003 µM |